PubChem BioAssay AID624099 | ICCB-Longwood – 2012
The whole screen tested about 21,000 reagents; this is an unselected part. In the full data, 497 (2.4%) were called active. 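Higher z means weaker E2 silencing; only reporter increases were scored, and knock-downs that hurt cell survival may mask genuine repressor factors.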

Aim: 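Human genes that papillomavirus E2 requires to repress the HPV18 LCR promoter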 (primary screen)
System: human C33A cervical carcinoma cells (HPV-negative) stably expressing BPV1 E2 and an HPV18 LCR luciferase reporter
Knock-down reagent: siRNA pool against human genes, 40 nM
Time to read-out: 72 h
Measurement: 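Per-well luciferase luminescence, z-scored on each plate against the plate mean and SD with control wells left out, then averaged across three replicate plates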
Reading the numbers: mean z-score and z-score: higher = stronger reporter signal, weaker E2 silencing
Rule for the call: 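Mean z ≥ 2 together with z ≥ 2 in two or more of the three replicates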

no.	Gene	PubChem SID	mean z-score	z-score, replicate A	z-score, replicate B	z-score, replicate C	call
1	FAM3A	SID134318167	0.39	0.19	0.14	0.85	inactive
2	GPX5	SID134314188	-0.18	0.22	-0.21	-0.54	inactive
3	ADAM3A	SID134326879	1.67	1.63	1.48	1.89	inactive
4	TLN1	SID134317195	0.49	0.75	0.6	0.12	inactive
5	PDCD1	SID134310468	-0.31	-0.44	-0.46	-0.02	inactive
6	SSX2IP	SID134324074	-0.65	-0.45	-0.66	-0.83	inactive
7	LINC03106	SID134329867	-0.94	-0.93	-0.91	-0.97	inactive
8	LOC284240	SID134328859	-0.58	-0.62	-0.66	-0.46	inactive
9	NYX	SID134318341	-0.62	-0.61	-0.73	-0.52	inactive
10	PLS1	SID134315700	0.03	0.12	0.2	-0.23	inactive
11	PRDM5	SID134324051	-0.82	-1.09	-0.8	-0.56	inactive
12	THSD7A	SID134326310	-0.43	-0.59	-0.35	-0.34	inactive
13	COMTD1	SID134322577	0.74	0.96	0.67	0.58	inactive
14	IL6	SID134312927	0.16	0.02	0.14	0.32	inactive
15	TAP2	SID134312680	0.05	-0.04	0.11	0.08	inactive
16	ZFPL1	SID134323172	-0.69	-0.58	-0.7	-0.79	inactive
17	ABHD4	SID134314298	-0.79	-0.57	-0.93	-0.86	inactive
18	SDHAF2	SID134324470	0.6	0.34	0.55	0.9	inactive
19	GABARAP	SID134316644	0.55	0.7	0.59	0.37	inactive
20	C1QTNF5	SID134318091	-0.02	-0.18	0.39	-0.25	inactive
21	SCLY	SID134321125	-0.98	-0.73	-1.33	-0.89	inactive
22	FEM1B	SID134319858	-0.14	-0.36	-0.06	-0.01	inactive
23	AMZ2P1	SID134320491	0.54	0.5	0.98	0.14	inactive
24	ZNF652	SID134324180	-0.79	-0.74	-0.9	-0.73	inactive
25	ABCC9	SID134312364	-0.39	-0.32	-0.54	-0.32	inactive
26	TNS4	SID134315088	1.84	1.69	1.64	2.2	inactive
27	CERS6	SID134329676	0.28	0.24	0.37	0.21	inactive
28	MAT1A	SID134313366	0.6	0.39	0.54	0.86	inactive
29	EFS	SID134316391	0.94	0.64	0.81	1.38	inactive
30	SLC22A7	SID134312504	-0.26	-0.14	-0.29	-0.33	inactive
31	TRPM1	SID134311837	0.13	0.37	0.22	-0.2	inactive
32	TMEM201	SID134325096	1.89	1.92	2.3	1.45	inactive
33	FBN2	SID134315980	0.59	0.71	0.44	0.6	inactive
34	CELA2B	SID134311289	0.67	0.3	0.9	0.79	inactive

The list goes on; the last 4 above are carried over.
no.	Gene	PubChem SID	mean z-score	z-score, replicate A	z-score, replicate B	z-score, replicate C	call
31	TRPM1	SID134311837	0.13	0.37	0.22	-0.2	inactive
32	TMEM201	SID134325096	1.89	1.92	2.3	1.45	inactive
33	FBN2	SID134315980	0.59	0.71	0.44	0.6	inactive
34	CELA2B	SID134311289	0.67	0.3	0.9	0.79	inactive
35	STEAP3	SID134324460	-1.38	-1.23	-1.28	-1.64	inactive
36	CBARP	SID134319788	-0.91	-1.18	-0.81	-0.76	inactive
37	OR8B2	SID134329918	-0.62	-0.69	-0.23	-0.92	inactive
38	LOC391510 (retired record)	SID134327339	1.51	1.37	1.77	1.4	inactive
39	TMEM71	SID134320008	-0.58	-0.88	-0.51	-0.36	inactive
40	RPS5	SID134315000	-2.2	-2.15	-2.31	-2.12	inactive
41	CPZ	SID134311257	-0.51	-0.21	-0.58	-0.73	inactive
42	WNT8A	SID134314089	-1.12	-1.34	-0.94	-1.08	inactive
43	KRTAP5-2	SID134329844	-1.46	-1.21	-1.9	-1.27	inactive
44	TP53INP1	SID134320165	0.05	-0.04	-0.03	0.23	inactive
45	KLHL17	SID134329281	-0.07	-0.24	-0.09	0.13	inactive
46	LINC02433	SID134327433	-0.53	-0.38	-0.48	-0.73	inactive
47	LAIR1	SID134311780	1.75	1.76	1.8	1.7	inactive
48	TSLIG3C	SID134324919	0.47	0.95	0.39	0.08	inactive
49	FABP5P1	SID134328453	0.04	-0.07	0.27	-0.08	inactive
50	ACVR1B	SID56478918	0.13	-0.33	0.57	0.17	inactive
51	FOS	SID134309823	0.13	0.98	-0.35	-0.24	inactive
52	PRRX2	SID134317473	-0.47	-0.67	-0.54	-0.18	inactive
53	LOC149704 (retired record)	SID134325971	1.48	1.35	1.61	1.49	inactive
54	LINC01104	SID134327140	-0.33	-0.33	-0.41	-0.26	inactive
55	SNX30	SID134328121	1.25	0.79	1.57	1.38	inactive
56	CRCP	SID134329474	1.06	0.6	0.8	1.77	inactive
57	STXBP5L	SID134325748	0.76	1.13	0.5	0.65	inactive
58	CYP4F22	SID134313748	-0.22	-0.52	-0.41	0.27	inactive
59	LINC01567	SID134329605	-0.3	-0.26	-0.34	-0.29	inactive
60	TAFA5	SID134318187	0.12	0.25	-0.05	0.16	inactive
61	LRPPRC	SID134322614	1.14	1.22	1.27	0.93	inactive
62	HPF1P1	SID134328094	-1.01	-0.85	-1.15	-1.01	inactive
63	DNM1	SID134310180	0.87	0.9	0.8	0.89	inactive
64	IFNLR1	SID134312915	-0.11	-0.16	-0.28	0.11	inactive
65	RASSF3	SID134322327	-0.09	-0.23	0.11	-0.16	inactive
66	FSTL5	SID134318012	0.88	0.85	0.75	1.05	inactive
67	RPL13AP24	SID134328401	1.02	0.82	1.26	0.98	inactive
68	NACAD	SID134326324	-0.41	-0.45	-0.35	-0.43	inactive
69	CNOT8	SID134322632	-0.67	-0.82	-0.72	-0.48	inactive
70	PSMG4	SID134327643	-0.34	-0.49	-0.51	-0.03	inactive
71	CLCA3P	SID134315195	-0.59	-0.57	-0.71	-0.49	inactive
72	UBP1	SID134321575	-0.15	-0.26	-0.05	-0.13	inactive
73	PHF20L1	SID134326884	0.01	-0.41	0.34	0.1	inactive
